Measured values as given in patent US20220204996A1.

Biological target: PsaC-HydA1 chimeric polypeptide (Chlamydomonas reinhardtii)
Experiment: cell-based or functional assay

“ferredoxin (Fd) (from UniProt P07839 33-126)” gave a Maximal rate of H2 production, TAP in the dark (GC) (µmol H2 (mg Chl)^-1 h^-1) of 1.5 and an average rate of H2 accumulation in the dark (GC-TCD, ΨH2 culture) (µmol H2 (mg Chl)^-1 h^-1) of 1.13.
